Laboratory results: US20170204167A1 (INSTITUTE FOR RESEARCH IN BIOMEDICINE, published 2017)
Changes are numbered by the printed parent chain.

B1: FI6 variant 4 (antibody, V domains shown)
VH: QVQLVQSGGGVVQPGRSLRLSCVASGFTFSTYAMHWVRQAPGRGLEWVAVISYDANYKYYADSVKGRFSISRDNSQNTLHLEMNTLRTEDTALYYCAKDSQLRSLLYFEWLSQGYFEPWGQGTLVTVTS
VL: DIVMTQSPDSLAVSLGERATINCKSSQSVTFNYKNYLAWYQQKPGQPPKLLIYWASTRESGVPDRFSGSGSGTDFTLTISSLQAEDVAVYYCQQHYRTPPTFGQGTKVEIK
B2: FI6 variant 3 (antibody, V domains shown)
VH: QVQLVESGGGVVQPGRSLRLSCAASGFTFSTYAMHWVRQAPGKGLEWVAVISYDANYKYYADSVKGRFTISRDNSKNTLYLQMNSLRAEDTAVYYCAKDSQLRSLLYFEWLSQGYFDYWGQGTLVTVSS
VL: B1 VL
B3: FI6 variant 5 (antibody, V domains shown)
VH: B1 VH
VL: B1 VL with Y33N

Experiments:
[1] = target: HA of H7N1 A/ck/FPV/Rostock/34 (influenza A virus H7N1 …, UniProt P03459 19-563); assay: cell-based or functional assay
[2] = target: HA of H5 A/VN/1194/04 (influenza A virus H5 A/VN/1194/04); assay: cell-based or functional assay
[3] = target: HA of H5N1 A/Viet Nam/1203/04 (influenza A virus H5N1 A/Viet …); assay: ELISA on recombinant or purified HA
[4] = target: HA of H9 A/HK/1073/99 (influenza A virus H9N2 A/Hong …); assay: ELISA on recombinant or purified HA
[5] = target: HA of H5N1 A/Viet Nam/1/05 (influenza A virus H5N1 A/Viet Nam/1/05); assay: ELISA on recombinant or purified HA
[6] = target: HA of H6N5 A/shearwater/Australia/1/72 (influenza A virus H6N5 …); assay: ELISA on recombinant or purified HA
[7] = target: HA of H7N3 A/Canada/444/04 (influenza A virus H7N3 A/Canada/444/04); assay: ELISA on recombinant or purified HA
[8] = target: HA of H8N4 A/Alberta/357/84 (influenza A virus H8N4 A/Alberta/357/84); assay: ELISA on recombinant or purified HA
[9] = target: HA of H10N4 A/mink/Sweded/3900/84 (influenza A virus H10N4 …); assay: ELISA on recombinant or purified HA
[10] = target: H5-HA (Table 7) (influenza A virus, H5 subtype, strain …); assay: ELISA on baculovirus-derived recombinant HA
[11] = target: H7-HA (Table 7) (influenza A virus, H7 subtype, strain …); assay: ELISA on baculovirus-derived recombinant HA

Binder	Neutralization H7 A/ck/FPV Rostock/34 IC50 (µg/ml), pseudovirus [1] [µg/mL]	Neutralization H5 A/VN/1194/04 IC50 (µg/ml), pseudovirus [2] [µg/mL]	EC50 [3] [µg/mL]	EC50 [4] [µg/mL]	EC50 [5] [µg/mL]	EC50 [6] [µg/mL]	EC50 [7] [µg/mL]	EC50 [8] [µg/mL]	EC50 [9] [µg/mL]	EC50 [10] [µg/mL]	EC50 [11] [µg/mL]
B1	0.0093	0.0035									
B2			0.014	0.015	0.011	0.034	0.025	0.027	0.085	0.0235	0.0573
B3	0.022	0.0054									
